Anti-infective test results gathered from many reports (values: NIAID ChemDB through PubChem).

All rows: enzyme or target tests

Rows are shuffled and stem from different studies.

structure	target	dose	strain	mutations	measure	method	species	result
O=C(O)c1ccc(N2C(=O)C(=Cc3ccccc3)SC2=S)cc1	NS5 polymerase				IC50		Bovine viral diarrhea virus	≤1 µM
Cc1ccc(C(=O)Nc2nnc(NC3CCCCCC3)s2)cc1	Polymerase				IC50		Human cytomegalovirus	>25 µM
CCOC(=O)N1CCN(C(=O)c2ccc(N(C)Cc3ccc4nc(N)nc(N)c4n3)cc2)CC1	Dihydrofolate reductase		TYPE 2		IC50		Cryptosporidium parvum	3.2 µM
CC(C)Cc1ccc(-c2cc(NS(=O)(=O)c3cc(OCC(F)(F)F)ccc3OCC(F)(F)F)c(C(=O)O)s2)cc1	NS3 ATPase				IC50		Hepatitis C virus	>20 µM
CC(C)c1cc(C(C)C)c(C(=O)Nc2nnc(NCC(c3ccccc3)c3ccccc3)s2)c(C(C)C)c1	Polymerase				IC50		Human cytomegalovirus	>25 µM
COc1ccc(N2CCN(c3cncc(-c4ccc(C)cc4)n3)CC2)cc1OC	UL97 kinase	1 µM			inhibition		Cytomegalovirus	<50%
O=c1ccn2ccn(CCCc3ccccc3Cl)c(=O)c2c1O	Integrase				IC50	ELISA	HIV-1	0.01–0.1 µM
COc1ccc(OC)c(NCc2ccc3nc(N)nc(N)c3c2Cl)c1	Dihydrofolate reductase		TYPE 1		IC50		Cryptosporidium parvum	0.0065 µM
Cc1ccc(C(=O)N(c2cc(-c3ccccc3)sc2C(=O)O)C(C)C)c(Br)c1	NS3 ATPase				IC50		Hepatitis C virus	<5 µM
CC(=O)c1ccc(N2CCN(c3cncc(-c4ccccc4C(C)=O)n3)CC2)cc1	UL97 kinase	10 µM			inhibition		Cytomegalovirus	>15%
O=C(Nc1nnc(NCCCn2ccnc2)s1)c1ccc(Cl)c(Cl)c1	Polymerase				IC50		Human cytomegalovirus	>25 µM
Oc1cccc(-c2cnc3c(Br)cnn3c2C2CCCCC2)c1	RNA-dependent RNA polymerase				IC50		Hepatitis C virus	>10 µM
COc1cc(NCc2csc3nc(N)nc(N)c23)cc(OC)c1OC	Dihydrofolate reductase		TYPE 1		IC50		Cryptosporidium parvum	>10 µM
NCc1ccc(-c2cncc(N3CCN(C(=O)c4ccco4)CC3)n2)cc1	UL97 kinase				IC50		Cytomegalovirus	<100 µM
CC1(C)CN(Cc2ccc(F)cc2)C(=O)c2c(O)c(=O)c(Br)cn21	Integrase				IC50	ELISA	HIV-1	0.1–1 µM
Nc1nc(N)c2c(n1)CCc1ccc(Cl)cc1-2	Dihydrofolate reductase		TYPE 1		IC50		Cryptosporidium parvum	>10 µM
O=C(O)c1cc2nc(-c3ccc(-c4ccccc4F)cc3)c(C3CCCCC3)c(=O)n2[nH]1	RNA-dependent RNA polymerase				IC50		Hepatitis C virus	1–10 µM
CCCCCCCC/C=C/CCCCCCCC(=O)Nc1nnc(NCC2CCCCC2)s1	Polymerase				IC50		Human cytomegalovirus	>25 µM
Cc1ccccc1S(=O)(=O)Nc1cc(-c2cccc(N)c2)sc1C(=O)O	NS3 ATPase				IC50		Hepatitis C virus	5–20 µM
c1ccc(COc2ccc(-c3cnc4c(-c5nn[nH]n5)cnn4c3C3CCOCC3)cc2)cc1	RNA-dependent RNA polymerase				IC50		Hepatitis C virus	>10 µM
Nc1nc(N)c2nc(CN3c4ccccc4Sc4ccccc43)cnc2n1	Dihydrofolate reductase		TYPE 2		IC50		Cryptosporidium parvum	1.8 µM
COc1ccccc1C(=O)Nc1nnc(NCc2cccc3ccccc23)s1	Polymerase				IC50		Human cytomegalovirus	>25 µM
CC(=O)c1ccccc1-c1ccc(C=C2SC(=S)N(c3ccc(C(=O)O)cc3)C2=O)o1	NS5 polymerase				IC50		Bovine viral diarrhea virus	≤1 µM
Nc1ccn([C@@H]2CS[C@H](COP(=O)(O)OP(=O)(O)OP(=O)(O)O)O2)c(=O)n1	Reverse transcriptase			RT-Q151M	Ki	radiometric	HIV	0.203 µM
O=C(O)CCN1C(=O)C(=Cc2ccc(N3C=Cc4ccccc4C3)o2)SC1=S	NS5 polymerase				IC50		Bovine viral diarrhea virus	≤1 µM
FC(F)(F)c1cccc(N2CCN(c3cncc(-c4ccc5ccccc5c4)n3)CC2)c1	UL97 kinase				IC50		Cytomegalovirus	<100 µM
Cc1ccccc1S(=O)(=O)Nc1cc(-c2cccc(Cl)c2)sc1C(=O)O	NS3 ATPase				IC50		Hepatitis C virus	<5 µM
NC(=O)c1ccc(-c2cnc(N)c(N3CCN(c4ccncc4)CC3)n2)cc1	UL97 kinase				IC50		Cytomegalovirus	<10 µM
CCOC(=O)c1cc2nc(-c3ccc(Cl)cc3)cc(-c3ccccc3)n2n1	RNA-dependent RNA polymerase				IC50		Hepatitis C virus	>10 µM
OCc1ccccc1-c1cncc(N2CCN(c3ccc(F)cc3F)CC2)n1	UL97 kinase				IC50		Cytomegalovirus	<100 µM
N#CCC1CN(Cc2ccc(Cl)c(Cl)c2)C(=O)c2c(O)c(=O)ccn21	Integrase				IC50	ELISA	HIV-1	0.01–0.1 µM
O=C(O)c1cc2nc(-c3ccc(Oc4ccccc4)cc3)cc(-c3ccccc3)n2n1	RNA-dependent RNA polymerase				IC50		Hepatitis C virus	>10 µM
O=C(Nc1nnc(NCCCNC2CCCCC2)s1)c1ccc(Br)cc1	Polymerase				IC50		Human cytomegalovirus	<25 µM
O=C(O)c1ccc(N2C(=O)C(=Cc3ccc(-c4cccs4)o3)SC2=S)cc1	NS5 polymerase				IC50		Bovine viral diarrhea virus	≤1 µM
Cn1ccnc1-c1cn2ccn(Cc3cccc(Cl)c3)c(=O)c2c(O)c1=O	Integrase				IC50	ELISA	HIV-1	0.01–0.1 µM
Cc1c(Cc2ccc(Cl)c(Cl)c2)sc2nc(N)nc(N)c12	Dihydrofolate reductase		TYPE 2		IC50		Cryptosporidium parvum	>10 µM
N#Cc1cccc(-c2cncc(N3CCN(c4ccncc4)CC3)n2)c1	UL97 kinase				IC50		Cytomegalovirus	<10 µM
c1cc(OC2CCCCC2)cc(-c2cnc3c(-c4nn[nH]n4)cnn3c2C2CCCCC2)c1	RNA-dependent RNA polymerase				IC50		Hepatitis C virus	1–10 µM
O=C(O)CCN1C(=O)C(=Cc2ccc(-c3ccc(Br)cc3)o2)SC1=S	NS5 polymerase				IC50		Bovine viral diarrhea virus	≤1 µM
O=C(/C=C/c1ccccc1Cl)Nc1nnc(NCCC(c2ccccc2)c2ccccc2)s1	Polymerase				IC50		Human cytomegalovirus	>25 µM
O=C(O)c1cc2nc(-c3ccc(Oc4ccccc4)cc3)cc(-c3ccc(Cl)c(Cl)c3)n2n1	RNA-dependent RNA polymerase				IC50		Hepatitis C virus	1–10 µM

Inhibition is in % at the dose shown (toxicity tests: loss of growth or viability). ICn is the concentration giving n% inhibition. a–b is a range or a potency band. Blank or dashed fields: not listed here.